Data from patent publication US20070249637A1, “Inhibitors Of Hepatitis C Virus Protease, And Compositions And Treatments Using The Same” (priority 2004, published 2007).

tested on: HCV dual reporter subgenomic replicon (B6b cell line); test: HCV dual reporter subgenomic replicon assay, Renilla luciferase (antiviral activity); type: cell-based, Hepatitis C virus; details: therapeutic index = CC50 divided by EC50
Experimental: The compounds described herein were tested for antiviral activity utilizing a dual-reporter replicon assay as described in U.S. patent application Ser. No. 10/818,075 (the '075 application), filed Apr. 5, 2004. The disclosure of the '075 application is incorporated herein.
Cell-based antiviral activity was evaluated in the previously described HCV dual reporter subgenomic replicon system (the '075 application). With this system, the effects of a compound on both HCV replication and cell viability can be simultaneously determined by measuring the intracellular levels of two separate reporter proteins. The dicistronic selectable replicon contains the Renilla luciferase gene such that Renilla luciferase activity within stably-transfected cells serves as a marker of HCV replication. The firefly luciferase gene is stably integrated into and expressed by the Huh-7 host cells. Since firefly luciferase activity is dependent upon cellular transcription and translation, firefly luciferase activity serves as an indicator of cell viability.
The dual reporter selectable replicon cell line (B6b) was maintained in DMEM supplemented with 10% FBS, L-glutamine, non-essential amino acids, penicillin, streptomycin, and selection agents (200 ug/ml G418 and 6 ug/ml blastocidin). On the first day of the experiment, cells were trypsinized, washed, and diluted in medium lacking the selection agents. Cells were transferred to 96-well, black-walled, clear bottom plates at a density of 2×10^4 cells in 150 ul of medium per well. Cells were allowed to settle for 60 to 90 minutes while compounds were being prepared. Each compound was initially diluted to a 4× working stock (2.56% DMSO in tissue culture medium) that was then serially diluted nine times in half log increments in medium with 2.56% DMSO. Fifty microliters of each dilution were then added in triplicate to the plated cells in order to obtain final IX compound concentrations with 0.64% DMSO. Typical testing concentrations ranged from 320 uM to 10 nM. Control wells containing 0.64% DMSO without compound were also included on each plate.
After 3 days of incubation under humidity at 37° C. with 5% CO2, plates were microscopically examined for compound precipitation and cell death. Tissue culture medium was then aspirated and cells were lysed with 20 ul of 1× Passive Lysis Buffer (Promega, Madison, Wis.). Reporter activity was measured using a MicroBeta Jet 1450 (Perkin Elmer, Boston, Mass.) following sequential 50 ul additions of firefly and Renilla luciferase substrates as described in the manufacturers protocol (Promega). Luciferase activities were expressed as a percentage of the signals observed in the compound-free control wells. The amount of compound required to reduce Renilla luciferase expression by 50% is defined as the 50% effective concentration, or EC50. The amount of compound that reduces firefly luciferase expression by 50% is defined as the 50% cytotoxic concentration, or CC50. A therapeutic index (TI) is calculated by dividing the CC50 by the EC50.

Compound	Replicon TI
O=C(N[C@H]1CCCCC/C=C\[C@@H]2C[C@@]2(C(=O)O)NC(=O)[C@@H]2C[C@@H](Oc3cc(-c4ccccn4)nc4ccsc34)CN2C1=O)OC1CCCC1 [Example 11, (2R,12Z,13aS,14aR,16aS)-6-{[(cyclopentyloxy)carbonyl]amino}-5,16-dioxo-2-[(5-pyridin-2-ylthieno[3,2-b]pyridin-7-yl)oxy]-1,2,3,6,7,8,9,10,11,13a,14,15,16,16a-tetradecahydrocyclopropa[e]pyrrolo[1,2-a][1,4]diazacyclopentadecine-14a(5H)-carboxylic acid]	780
CC(C)(C)OC(=O)N[C@H]1CCCCC/C=C\[C@@H]2C[C@@]2(C(=O)O)NC(=O)[C@@H]2C[C@@H](Oc3nc(-c4ccccn4)nc4sccc34)CN2C1=O [Example 29, (2R,6S,12Z,13aS,14aR,16aS)-6-[(tert-butoxycarbonyl)amino]-5,16-dioxo-2-[(2-pyridin-2-ylthieno[2,3-d]pyrimidin-4-yl)oxy]-1,2,3,6,7,8,9,10,11,13a,14,15,16,16a-tetradecahydrocyclopropa[e]pyrrolo[1,2-a][1,4]diazacyclopentadecine-14a(5H)-carboxylic acid]	31
Cc1cc(-c2nc(O[C@@H]3C[C@H]4C(=O)N[C@]5(C(=O)O)C[C@H]5/C=C\CCCCC[C@H](NC(=O)OC5CCCC5)C(=O)N4C3)c3sccc3n2)n(C)n1 [Example 58, (2R,6S,12Z,13aS,14aR,16aS)-6-{[(Cyclopentyloxy)carbonyl]amino}-2-{[2-(1,3-dimethyl-1H-pyrazol-5-yl)thieno[3,2-d]pyrimidin-4-yl]oxy}-5,16-dioxo-1,2,3,6,7,8,9,10,11,13a,14,15,16,16a-tetradecahydrocyclopropa[e]pyrrolo[1,2-a][1,4]diazacyclopentadecine-14a(5H)-carboxylic acid]	3500
CC(C)Nc1cccc(-c2nc(O[C@@H]3C[C@H]4C(=O)N[C@]5(C(=O)O)C[C@H]5/C=C\CCCCC[C@H](NC(=O)OC(C)(C)C)C(=O)N4C3)c3sccc3n2)n1 [Example 79, (2R,6S,12Z,13aS,14aR,16aS)-6-[(Tert-butoxycarbonyl)amino]-2-({2-[6-(isopropylamino)pyridin-2-yl]thieno[3,2-d]pyrimidin-4-yl}oxy)-5,16-dioxo-1,2,3,6,7,8,9,10,11,13a,14,15,16,16a-tetradecahydrocyclopropa[e]pyrrolo[1,2-a][1,4]diazacyclopentadecine-14a(5H)-carboxylic acid]	1200
O=C(N[C@H]1CCCCC/C=C\[C@@H]2C[C@@]2(C(=O)O)NC(=O)[C@@H]2C[C@@H](Oc3nc(-c4ccccn4)nc4ccsc34)CN2C1=O)OC1CCCC1 [Example 41, (2R,6S,12Z,13aS,14aR,16aS)-6-{[(cyclopentyloxy)carbonyl]amino}-5,16-dioxo-2-[(2-pyridin-2-ylthieno[3,2-d]pyrimidin-4-yl)oxy]-1,2,3,6,7,8,9,10,11,13a,14,15,16,16a-tetradecahydrocyclopropa[e]pyrrolo[1,2-a][1,4]diazacyclopentadecine-14a(5H)-carboxylic acid]	2600
O=C(CC1CC1)N[C@H]1CCCCC/C=C\[C@@H]2C[C@@]2(C(=O)O)NC(=O)[C@@H]2C[C@@H](Oc3nc(-c4ccccn4)nc4ccsc34)CN2C1=O [Example 46, (2R,6S,12Z,13aS,14aR,16aS)-6-[(Cyclopropylacetyl)amino]-5,16-dioxo-2-[(2-pyridin-2-ylthieno[3,2-d]pyrimidin-4-yl)oxy]-1,2,3,6,7,8,9,10,11,13a,14,15,16,16a-tetradecahydrocyclopropa[e]pyrrolo[1,2-a][1,4]diazacyclopentadecine-14a(5H)-carboxylic acid]	>3500
CC(C)(C)OC(=O)N[C@H]1CCCCC/C=C\[C@@H]2C[C@@]2(C(=O)O)NC(=O)[C@@H]2C[C@@H](Oc3cc(-c4ccccn4)nc4ccsc34)CN2C1=O [Example 14, (2R,6S,12Z,13aS,14aR,16aS)-6-[(Tert-butoxycarbonyl)amino]-5,16-dioxo-2-[(5-pyridin-2-ylthieno[3,2-b]pyridin-7-yl)oxy]-1,2,3,6,7,8,9,10,11,13a,14,15,16,16a-tetradecahydrocyclopropa[e]pyrrolo[1,2-a][1,4]diazacyclopentadecine-14a(5H)-carboxylic acid]	150
Cn1ccnc1-c1cc2nccc(O[C@@H]3C[C@H]4C(=O)N[C@]5(C(=O)O)C[C@H]5/C=C\CCCCC[C@H](NC(=O)CC5CC5)C(=O)N4C3)c2s1 [Example 91, (2R,6S,12Z,13aS,14aR,16aS)-6-[(Cyclopropylacetyl)amino]-2-{[2-(1-methyl-1H-imidazol-2-yl)thieno[3,2-b]pyridin-7-yl]oxy}-5,16-dioxo-1,2,3,6,7,8,9,10,11,13a,14,15,16,16a-tetradecahydrocyclopropa[e]pyrrolo[1,2-a][1,4]diazacyclopentadecine-14a(5H)-carboxylic acid]	>1100
O=C(N[C@H]1CCCCC/C=C\[C@@H]2C[C@@]2(C(=O)O)NC(=O)[C@@H]2C[C@@H](Oc3nc(-c4ccccn4)nc4sccc34)CN2C1=O)OC1CCC1 [Example 28, (2R,6S,12Z,13aS,14aR,16aS)-6-{[(cyclobutyloxy)carbonyl]amino}-5,16-dioxo-2-[(2-pyridin-2-ylthieno[2,3-d]pyrimidin-4-yl)oxy]-1,2,3,6,7,8,9,10,11,13a,14,15,16,16a-tetradecahydrocyclopropa[e]pyrrolo[1,2-a][1,4]diazacyclopentadecine-14a(5H)-carboxylic acid]	140
Cn1ccnc1-c1cc2nccc(O[C@@H]3C[C@H]4C(=O)N[C@]5(C(=O)O)C[C@H]5/C=C\CCCCC[C@H](NC(=O)OC(C)(C)C)C(=O)N4C3)c2s1 [Example 86, (2R,6S,12Z,13aS,14aR,16aS)-6-[(tert-butoxycarbonyl)amino]-2-{[2-(1-methyl-1H-imidazol-2-yl)thieno[3,2-b]pyridin-7-yl]oxy}-5,16-dioxo-1,2,3,6,7,8,9,10,11,13a,14,15,16,16a-tetradecahydrocyclopropa[e]pyrrolo[1,2-a][1,4]diazacyclopentadecine-14a(5H)-carboxylic acid]	>21
CC(C)(C)OC(=O)N[C@H]1CCCCC/C=C\[C@@H]2C[C@@]2(C(=O)O)NC(=O)[C@@H]2C[C@@H](Oc3nc(-c4ccccn4)nc4ccsc34)CN2C1=O [Example 44, (2R,6S,12Z,13aS,14aR,16aS)-6-[(Tert-butoxycarbonyl)amino]-5,16-dioxo-2-[(2-pyridin-2-ylthieno[3,2-d]pyrimidin-4-yl)oxy]-1,2,3,6,7,8,9,10,11,13a,14,15,16,16a-tetradecahydrocyclopropa[e]pyrrolo[1,2-a][1,4]diazacyclopentadecine-14a(5H)-carboxylic acid]	1100
Cn1ccnc1-c1cc2nccc(O[C@@H]3C[C@H]4C(=O)N[C@]5(C(=O)O)C[C@H]5/C=C\CCCCC[C@H](NC(=O)OC5CCCC5)C(=O)N4C3)c2s1 [Example 89, (2R,6S,12Z,13aS,14aR,16aS)-6-{[(Cyclopentyloxy)carbonyl]amino}-2-{[2-(1-methyl-1H-imidazol-2-yl)thieno[3,2-b]pyridin-7-yl]oxy}-5,16-dioxo-1,2,3,6,7,8,9,10,11,13a,14,15,16,16a-tetradecahydrocyclopropa[e]pyrrolo[1,2-a][1,4]diazacyclopentadecine-14a(5H)-carboxylic acid]	>640
Cc1cc(-c2nc(O[C@@H]3C[C@H]4C(=O)N[C@]5(C(=O)O)C[C@H]5/C=C\CCCCC[C@H](NC(=O)OC(C)(C)C)C(=O)N4C3)c3sccc3n2)n(C)n1 [Example 61, (2R,6S,12Z,13aS,14aR,16aS)-6-[(Tert-butoxycarbonyl)amino]-2-{[2-(1,3-dimethyl-1H-pyrazol-5-yl)thieno[3,2-d]pyrimidin-4-yl]oxy}-5,16-dioxo-1,2,3,6,7,8,9,10,11,13a,14,15,16,16a-tetradecahydrocyclopropa[e]pyrrolo[1,2-a][1,4]diazacyclopentadecine-14a(5H)-carboxylic acid]	280
Cc1cc(-c2nc(O[C@@H]3C[C@H]4C(=O)N[C@]5(C(=O)O)C[C@H]5/C=C\CCCCC[C@H](NC(=O)O[C@H]5CCOC5)C(=O)N4C3)c3sccc3n2)n(C)n1 [Example 65, (2R,6S,12Z,13aS,14aR,16aS)-2-{[2-(1,3-Dimethyl-1H-pyrazol-5-yl)thieno[3,2-d]pyrimidin-4-yl]oxy}-5,16-dioxo-6-({[(3S)-tetrahydrofuran-3-yloxy]carbonyl}amino)-1,2,3,6,7,8,9,10,11,13a,14,15,16,16a-tetradecahydrocyclopropa[e]pyrrolo[1,2-a][1,4]diazacyclopentadecine-14a(5H)-carboxylic acid]	>120
